Data as given in PubChem BioAssay AID504761 (Drosophila RNAi Screening Center, 2011).

- Assay: 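Insect host genes that dengue virus relies on to spread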 (primary screen)
- Cell system: D.Mel-2 cells from Drosophila
- Reagents: long dsRNA against Drosophila genes
- Conditions: infection with dengue virus type 2; dose and infection time not stated
- Read-out: 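Per well on two replicate plates, imaging gave the percent of cells positive for viral envelope protein, ranked by infection, and a nuclear count of cells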
- Direction: infection score: higher = more virus-infected cells; cell count: higher = more cells in the well
- Call rule: 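Low infection ranks in the two replicates (chance level up to 0.065) followed by a retest with a 1.5-fold or larger significant decrease, p below 0.05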
- Calls: active = confirmed: knock-down lowers infection; inactive = not picked or not confirmed
The deposit covers about 22,000 reagents; this is a random part of those that have a named target and a result. Over the whole deposit, 116 (0.52%) are marked active. 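Calls depend on retest data that are not deposited; infection was ranked per plate without normalising between plates; the unit of the infection score is not given.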 Raw values are not corrected between plates. Unmarked entries are inactive. A plus sign joins genes that one reagent is predicted to hit. Not given: the amount of reagent, the time to read-out.

gene	DRSC id	infection score, replicate 1	infection score, replicate 2	cell count, replicate 1	cell count, replicate 2
pon (partner of numb)	DRSC18823		0.81	365	494
Rnb (R and B)	DRSC16325	2.51	1.91	5726	5981
Rnb (R and B)	DRSC28764			274	401
CG33169	DRSC11853	16.5	11.1	6061	6748
CG33169	DRSC27830	11.2	17.1	6409	6501
Ir51b (Ionotropic receptor 51b)	DRSC05540	1.08	0.42	6188	5994
CG31077	DRSC13805	7.7	5.77	6068	5299
CG31077	DRSC23916	3.73	5.14	6329	6523
CG32266	DRSC08062	4.21	3.53	6288	5607
CG32266	DRSC27644	21.4	12.8	5686	688
SPE (Spatzle-Processing Enzyme)	DRSC15135	8.55	6.58	6281	6325
SPE (Spatzle-Processing Enzyme)	DRSC25455	4.81	2.89	6044	5884
Ntl (Neurotransmitter transporter-like)	DRSC03003	38.8	9.54	4993	5661
Ntl (Neurotransmitter transporter-like)	DRSC28007	7.55	12.7	6440	6639
Dp (DP transcription factor)	DRSC07402	22.6	4.94	2834	2791
Phb2 (Prohibitin 2)	DRSC06512	17.9	13	5648	5407
CG5390	DRSC02855	5.75	2.02	6365	6838
CG5390	DRSC27775	12.4	5.84	5458	6914
CG9837	DRSC16573	5	3.94	6405	6649
CG9837	DRSC27966	19.4	7.4	2469	6928
Khc (Kinesin heavy chain)	DRSC07448	16	0.51	6014	590
Khc (Kinesin heavy chain)	DRSC24335	6.5	0.69	5909	6091
lncRNA:noe (long non-coding RNA:noe)	DRSC22747	3.94	18.6	6800	6170
lncRNA:noe (long non-coding RNA:noe)	DRSC24139	1.39	0.61	5887	6249
CG8401	DRSC07165	21.3	25.3	5018	4147
CaMKI (Calcium/calmodulin-dependent protein kinase I)	DRSC17162	1.2	6.83	6190	6238
CG8818	DRSC07275	5.31	8.88	6137	6522
CG8818	DRSC28138	15.8	16	6287	6219
CG17567 (retired record)	DRSC02627	1.36	5.5	6523	2435
CG17567 (retired record)	DRSC22537	14.9	26	6641	4191
CG17567 (retired record)	DRSC24938	2.08	4.79	6447	6221
Polr3K + Tcs1	DRSC05988	6.17	5.77	5788	6274
Polr3K + Tcs1	DRSC26790	2.63	5.21	6697	6353
qkr58E-1 (quaking related 58E-1)	DRSC04709	8.86	18.4	6322	5213
qkr58E-1 (quaking related 58E-1)	DRSC23841	4.2	8.01	6458	6429
CG13870	DRSC06429	1.71	2.41	6074	5855
CG4743	DRSC15636	22.4	12.9	5105	5240
CAH1 + Adat1	DRSC02009	26.4	29.4	2186	4706
CG2736	DRSC04314	14.8	32.3	6352	5187

Part of the list above, reformatted.
gene,DRSC id,"infection score, replicate 1","infection score, replicate 2","cell count, replicate 1","cell count, replicate 2"
CG9837,DRSC16573,5,3.94,6405,6649
CG9837,DRSC27966,19.4,7.4,2469,6928
